Experimental data reported in article PMC4888613, “Antifilarial activity of diterpenoids from Taxodium distichum” (Parasites & Vectors, 2016).

Key:
[1] = tested on: Brugia malayi microfilariae (Mf); assay: In vitro motility assay on microfilariae; format: cell-based; settings: Selectivity Index CC50/IC50, microfilariae
Experimental: (§1) Microfilariae and adult worms were harvested from p.c. of the M. unguiculatus harbouring approximately 5–6 month-old B. malayi infection. The parasites were washed thoroughly with HBSS (pH 7.2) containing antibiotics (penicillin: 100 U/ml; streptomycin: 100 μg/ml) and used for the present study.
(§2) Motility and 3-(4,5-dimethylthiazol-2-yl)-2,5 diphenyltetrazolium bromide (MTT; Sigma-Aldrich, USA) reduction assays that indicate viability of the parasites were used. Test samples and ivermectin (purity 95 %; Sigma-Aldrich, USA) were dissolved in dimethyl sulfoxide (DMSO; Sigma-Aldrich, USA); the final concentration of DMSO in the incubation medium Hanks Balanced Salt Solution (HBSS; Sigma-Aldrich, USA) containing 100 U/ml penicillin and 100 μg/ml streptomycin (Sigma-Aldrich, USA), was kept ≤ 0.1 %. Diethylcarbamazine-citrate (DEC-C; purity 100 %; Sigma-Aldrich, USA) solution was prepared in sterile distilled water. HBSS containing DMSO (≤ 0.1 %) alone was used as negative control.
(§3) In vitro efficacy of the test agents and reference drugs was assessed on mf (40–50 mf/100 μl/well) in a 96-well cell culture plate (Nunc, Denmark) and on adult female worms (1 worm/ml/well) in a 48-well plate (Nunc, Denmark). The assays were run in triplicates.
(§4) Motility assay using mf and adult worms was carried out as described elsewhere. Changes in parasite motility was assessed under a microscope and scored as: 0 = dead (100 %); 1-4 = loss of motility (1 = 75 %; 2 = 50 %; 3 = 25 %; and 4 = no loss of motility). The experiment was repeated twice.
(§5) IC50 and CC50 of the test agents were determined using the method described elsewhere. […] The experiments were repeated twice.
(§6) Data were transferred to a graphic program (MS Excel) and IC50 and CC50 were calculated by linear interpolation between the two concentrations above and below 50 % inhibition.

[2] = tested on: Brugia malayi adult worms (AW); assay: In vitro motility assay on adult female worms; format: cell-based; settings: Selectivity Index CC50/IC50, adult worms
Experimental: as §1, §2, §3, §4, §5, §6

| Structure (SMILES) | SI for Mf in MA [1] | SI for AW in MA [2] |
| --- | --- | --- |
| CCN(CC)C(=O)N1CCN(C)CC1 [DEC-C, Diethylcarbamazine-citrate] | 30.27 | 28.57 |
| C=C1CCC2C(C)(C)CCC[C@@]2(C)C1CC/C(C)=C/C(=O)O (stereo partly drawn) [Compound K003, labda-8(20),13-diene-15-oic acid] | 9.69 | 2.42 |
| C=C1CCC2C(C)(C)C(OC(C)=O)CC[C@@]2(C)C1CC/C(C)=C/C(=O)O (stereo partly drawn) [Compound K001, 3-Acetoxylabda-8(20),13-diene-15-oic acid] | 7.88 | 16.91 |
